Measured values taken from US20050272055A1 (priority 2000, published 2005).

System: TNF-α
Assay: SEB-induced TNF-alpha induction in human lymphoid cells
Assay type: cell-based
Conditions: PKC inhibitors, dose 10 uM

COc1ccc2c(c[n+](C)c3c4cc5c(cc4ccc23)OCO5)c1OC [Chelerythrine]
effect on production of eicosanoids and neuropeptides: blocked production of eicosanoids and neuropeptides
